Pooled drug test results. Numbers come from NIAID ChemDB, via PubChem.

Common to all: growth or infection tests; organism: Candida albicans; endpoint: zone

An empty or dashed field is not shown. Conditions beyond the fields shown may differ between rows. Zones are inhibition diameters on agar.

SMILES,strain,read by,dose,result
CC1/C(=N\O)C(=O)NCCCOc2c(O)cc(c(Br)c2Br)C/C2=N\O[C@@H]3[C@H](Br)[C@@]4(C=C[C@@]3(O)C/C(=N\O)C(=O)NC[C@@H](O)[C@H](O)[C@H](O)CNC2=O)Oc2cc1cc(Br)c2O4,,agar diffusion,50 µg/disc,11 mm
CN(C)c1ccc(C=NNC(=O)c2snnc2C(F)(F)F)cc1,MTCC 227,agar diffusion / agar,100 µg/mL,0 mm
Cc1ccc(/C=c2\c(=O)[nH][nH]\c2=C2/C(=O)c3ccccc3N(C)C2=O)cc1,ATCC 10231,agar diffusion,1 mg/mL,6 mm
CCN(CC)CCSc1nnc(C23CC4CC(CC(C4)C2)C3)n1C,IFO 0583,agar diffusion,200 µg/disc,<10 mm
C[C@@H]1[C@@H](COCC(=O)O)C[C@@H](O[C@H]2[C@H](O)[C@@H](N(Cc3ccc(Cl)cc3Cl)CC(O)C[N+](C)(C)C)[C@H](O[C@H]3[C@H](O)[C@@H](N(Cc4ccc(Cl)cc4Cl)CC(O)C[N+](C)(C)C)[C@H](C)O[C@@H]3COCC(=O)O)O[C@@H]2COCC(=O)O)[C@H](N(Cc2ccc(Cl)cc2Cl)CC(O)C[N+](C)(C)C)[C@H]1O,RCMB 05031,agar diffusion,1 mg/mL,18 mm
C#Cc1c(-c2ccc([N+](=O)[O-])cc2)c(C#N)c2nc(=O)c3c(-c4ccc(Cl)cc4)csc3n2c1N,,agar diffusion / agar,1000 µg/mL,2.6 mm
S=c1nc2c(n[nH]1)Cc1ccccc1N2,ATCC 2091,,1000 µg/mL,25 mm
CS(=O)(=O)c1nc(N)c(C#N)c(-c2ccccc2[N+](=O)[O-])n1,MTCC 227,agar diffusion,25 µg/mL,18 mm
N#CCC(=O)Nc1scc(-c2ccccc2)c1C#N,,agar diffusion / agar,1000 µg/mL,4 mm
CSC1=NC(c2ccccc2)C(C#N)=C(N)N1,MTCC 227,agar diffusion,100 µg/mL,20 mm
c1ccc(CSc2nnc(C34CC5CC(CC(C5)C3)C4)n2-c2ccccc2)cc1,IFO 0583,agar diffusion,200 µg/disc,<10 mm
COc1ccc(-c2nc(S(C)(=O)=O)nc(N)c2C#N)cc1,MTCC 227,agar diffusion,100 µg/mL,20 mm
COc1cc2c(cc1-c1cc(-c3ccccc3)nc(N)n1)CCC(C)(C)O2,,agar diffusion,100 µg/mL,11 mm
O=[N+]([O-])c1ccc(/C=N/n2c(C34CC5CC(CC(C5)C3)C4)n[nH]c2=S)c([N+](=O)[O-])c1,IFO 3007,agar diffusion,200 µg/disc,<10 mm
CN(C)CCSc1nnc(C23CC4CC(CC(C4)C2)C3)n1C,IFO 0583,agar diffusion,200 µg/disc,<10 mm
C[C@H]1[C@H](O)[C@@H](C)/C=C/C=C/C=C/C=C/C=C/C=C/C=C/[C@H](O[C@@H]2O[C@H](C)[C@@H](O)[C@H](N)[C@@H]2O)C[C@@H]2O[C@](O)(C[C@@H](O)C[C@@H](O)CC[C@H](O)[C@@H](O)C[C@@H](O)CC(=O)O[C@H]1C)C[C@H](O)[C@H]2C(=O)O,CN,agar diffusion,100 µg/mL,10 mm
CC1=NN(c2nnc3c(n2)Nc2ccccc2C3)C(=O)C1=C(C)C,ATCC 2091,,1000 µg/mL,24 mm
CS(=O)(=O)c1nc(N)c(C#N)c(-c2ccccc2)n1,MTCC 227,agar diffusion,100 µg/mL,19 mm
COc1cccc(CN(CC(O)C[N+](C)(C)C)[C@@H]2[C@@H](O)[C@H](O[C@@H]3O[C@H](COCC(=O)O)[C@@H](O[C@@H]4C[C@H](COCC(=O)O)[C@@H](C)[C@H](O)[C@H]4N(Cc4cccc(OC)c4)CC(O)C[N+](C)(C)C)[C@H](O)[C@H]3N(Cc3cccc(OC)c3)CC(O)C[N+](C)(C)C)[C@@H](COCC(=O)O)O[C@H]2C)c1,RCMB 05031,agar diffusion,1 mg/mL,12.3 mm
CC(=NNC(=O)c1snnc1C(F)(F)F)c1ccccc1,MTCC 227,agar diffusion / agar,100 µg/mL,0 mm
FC(F)(F)c1cccc(N2CCN(Cn3nc(C45CC6CC(CC(C6)C4)C5)n(/N=C/c4c(Cl)cccc4Cl)c3=S)CC2)c1,IFO 3007,agar diffusion,200 µg/disc,<10 mm
O=C1C(Cl)C(c2ccc([N+](=O)[O-])cc2)N1Nc1nc2ccccc2n2nnnc12,ATCC 2091,agar diffusion,50 µg/mL,10 mm
CSC1=NC(c2ccccc2[N+](=O)[O-])C(C#N)=C(N)N1,MTCC 227,agar diffusion,100 µg/mL,20 mm
Fc1ccc(N2CCN(Cn3nc(C45CC6CC(CC(C6)C4)C5)n(/N=C/c4c(Cl)cccc4Cl)c3=S)CC2)cc1,IFO 3007,agar diffusion,200 µg/disc,<10 mm
Fc1ccc(CSc2nnc(C34CC5CC(CC(C5)C3)C4)n2-c2ccccc2)cc1,IFO 0583,agar diffusion,200 µg/disc,<10 mm
COc1cccc(/C=c2\c(=O)[nH][nH]\c2=C2/C(=O)c3ccccc3N(C)C2=O)c1,ATCC 10231,agar diffusion,1 mg/mL,8 mm
CCOC(=O)C1CCN(Cn2nc(C34CC5CC(CC(C5)C3)C4)n(/N=C/c3ccc(Cl)c(Cl)c3)c2=S)CC1,IFO 3007,agar diffusion,200 µg/disc,<10 mm
COc1ccccc1CN(CC(O)C[N+](C)(C)C)[C@@H]1[C@@H](O)[C@H](O[C@@H]2O[C@H](COCC(=O)O)[C@@H](O[C@@H]3C[C@H](COCC(=O)O)[C@@H](C)[C@H](O)[C@H]3N(Cc3ccccc3OC)CC(O)C[N+](C)(C)C)[C@H](O)[C@H]2N(Cc2ccccc2OC)CC(O)C[N+](C)(C)C)[C@@H](COCC(=O)O)O[C@H]1C,RCMB 05031,agar diffusion,1 mg/mL,15.1 mm
Cn1c(=O)c(-c2[nH][nH]c(=O)c2C=Nc2ccc(N)cc2)c(O)c2ccccc21,ATCC 10231,agar diffusion,1 mg/mL,17 mm
O=C(Cc1nnc2nnc3c(n12)Nc1ccccc1C3)NNC(=S)Nc1ccccc1,ATCC 2091,,1000 µg/mL,26 mm
CC1=C(Cl)C(O)=CC(=O)C12Oc1cc(O)c(Cl)c(C)c1C2=O,MTCC 227,agar diffusion,50 µg/mL,25 mm
CN1C(=O)/C(=c2/[nH][nH]c(=O)/c2=C\c2ccccn2)C(=O)c2ccccc21,ATCC 10231,agar diffusion,1 mg/mL,6 mm
NS(=O)(=O)c1ccc(C2C=C(c3ccc(Br)cc3)CC2c2ccccc2)cc1,ATCC 2091,,1000 µg/mL,23 mm
O=C1CSC(c2ccccc2[N+](=O)[O-])N1Nc1nc2ccccc2n2nnnc12,ATCC 2091,agar diffusion,50 µg/mL,7 mm
O=S(=O)(NC(=S)Nc1ccccc1)c1ccc(N2N=C(c3ccc(Cl)cc3)C(Br)C2c2ccccc2)cc1,ATCC 2091,,1000 µg/mL,25 mm
O=C1CSC(c2ccccc2F)N1Nc1nc2ccccc2n2nnnc12,ATCC 2091,agar diffusion,100 µg/mL,10 mm
C#Cc1c(-c2ccccc2)csc1NC(=O)/C(C#N)=N/Nc1ccccc1,,agar diffusion / agar,1000 µg/mL,0 mm
COc1ccc(C2N=C(SC)NC(N)=C2C#N)cc1,MTCC 227,agar diffusion,25 µg/mL,17 mm
C=CC(C)(C)c1cc(C2CC(=O)c3c(cc(O)c(CC=C(C)C)c3O)O2)c(O)cc1O,hemoculture isolate 16655,agar diffusion / agar,2 mg/mL,0 mm
O=S(=O)(NC(=S)Nc1ccccc1)c1ccc(N2N=C(c3ccc(Br)cc3)CC2c2ccccc2)cc1,ATCC 2091,,1000 µg/mL,26 mm
C[C@@H]1[C@@H](COCC(=O)O)C[C@@H](O[C@H]2[C@H](O)[C@@H](N(Cc3ccccc3)CC(O)C[N+](C)(C)C)[C@H](O[C@H]3[C@H](O)[C@@H](N(Cc4ccccc4)CC(O)C[N+](C)(C)C)[C@H](C)O[C@@H]3COCC(=O)O)O[C@@H]2COCC(=O)O)[C@H](N(Cc2ccccc2)CC(O)C[N+](C)(C)C)[C@H]1O,RCMB 05031,agar diffusion,1 mg/mL,15.6 mm
CN1CCN(Cn2nc(C34CC5CC(CC(C5)C3)C4)n(/N=C/c3c(F)cccc3F)c2=S)CC1,IFO 3007,agar diffusion,200 µg/disc,<10 mm
O=C1CSC(c2ccccc2)N1Nc1nc2ccccc2n2nnnc12,ATCC 2091,agar diffusion,100 µg/mL,9 mm
O=C(NN=Cc1ccccc1)c1snnc1C(F)(F)F,MTCC 227,agar diffusion / agar,150 µg/mL,12 mm
S=c1[nH]nc(C23CC4CC(CC(C4)C2)C3)n1/N=C/c1ccccc1,IFO 3007,agar diffusion,200 µg/disc,<10 mm
O=C(NN=Cc1ccc([N+](=O)[O-])cc1)c1snnc1C(F)(F)F,MTCC 227,agar diffusion / agar,150 µg/mL,0 mm
COc1ccccc1/C=c1\c(=O)[nH][nH]\c1=C1/C(=O)c2ccccc2N(C)C1=O,ATCC 10231,agar diffusion,1 mg/mL,10 mm
COc1cc2c(cc1-c1cc(-c3ccc(N(C)C)cc3)nc(N)n1)CCC(C)(C)O2,,agar diffusion,100 µg/mL,16 mm
Cc1cc(=O)n(-c2ccc(N=Cc3c(-c4c(O)c5ccccc5n(C)c4=O)[nH][nH]c3=O)cc2)n1C,ATCC 10231,agar diffusion,1 mg/mL,10 mm
CC1=NN(c2nnc3c(n2)Nc2ccccc2N3)C(=O)C1=C(C)C,ATCC 2091,,1000 µg/mL,23 mm
N#Cc1c(-c2ccccc2)csc1N,,,1000 µg/mL,18 mm
COc1cc2c(cc1-c1cc(-c3ccc(C)cc3)nc(N)n1)CCC(C)(C)O2,,agar diffusion,100 µg/mL,11 mm
CS(=O)(=O)C1=NC(c2cccc3cc4ccccc4cc23)C(C#N)=C(N)N1,MTCC 227,agar diffusion,100 µg/mL,19 mm
S=c1n(CN2CCN(c3ccccc3)CC2)nc(C23CC4CC(CC(C4)C2)C3)n1-c1ccccc1,IFO 0583,agar diffusion,200 µg/disc,<10 mm
C/C=C/C1=CC2=CC(=O)[C@](C)(OC(=O)c3c(C)cc(O)c(O)c3OC)C(=O)C2=CO1,ATCC 64548,agar diffusion,50 µg/disc,0 mm
CSC1=NC(c2ccc(Cl)cc2)C(C#N)=C(N)N1,MTCC 227,agar diffusion,25 µg/mL,17 mm
CC(=NNC(=O)c1snnc1C(F)(F)F)c1ccc([N+](=O)[O-])cc1,MTCC 227,agar diffusion / agar,150 µg/mL,0 mm
COc1ccc(-c2cc(-c3cc4c(cc3OC)OC(C)(C)CC4)nc(N)n2)cc1,,agar diffusion,100 µg/mL,10 mm
N#CCC(=O)Nc1scc(-c2ccc(Cl)cc2)c1C#N,,agar diffusion / agar,1000 µg/mL,0 mm

Repeating the final 7 entries:

{"SMILES": "CS(=O)(=O)C1=NC(c2cccc3cc4ccccc4cc23)C(C#N)=C(N)N1", "strain": "MTCC 227", "read by": "agar diffusion", "dose": "100 µg/mL", "result": "19 mm"}
{"SMILES": "S=c1n(CN2CCN(c3ccccc3)CC2)nc(C23CC4CC(CC(C4)C2)C3)n1-c1ccccc1", "strain": "IFO 0583", "read by": "agar diffusion", "dose": "200 µg/disc", "result": "<10 mm"}
{"SMILES": "C/C=C/C1=CC2=CC(=O)[C@](C)(OC(=O)c3c(C)cc(O)c(O)c3OC)C(=O)C2=CO1", "strain": "ATCC 64548", "read by": "agar diffusion", "dose": "50 µg/disc", "result": "0 mm"}
{"SMILES": "CSC1=NC(c2ccc(Cl)cc2)C(C#N)=C(N)N1", "strain": "MTCC 227", "read by": "agar diffusion", "dose": "25 µg/mL", "result": "17 mm"}
{"SMILES": "CC(=NNC(=O)c1snnc1C(F)(F)F)c1ccc([N+](=O)[O-])cc1", "strain": "MTCC 227", "read by": "agar diffusion / agar", "dose": "150 µg/mL", "result": "0 mm"}
{"SMILES": "COc1ccc(-c2cc(-c3cc4c(cc3OC)OC(C)(C)CC4)nc(N)n2)cc1", "read by": "agar diffusion", "dose": "100 µg/mL", "result": "10 mm"}
{"SMILES": "N#CCC(=O)Nc1scc(-c2ccc(Cl)cc2)c1C#N", "read by": "agar diffusion / agar", "dose": "1000 µg/mL", "result": "0 mm"}